Target: L-plastin EF construct (EF-hand headpiece domain, H5 region omitted) (human)
Assay: SPR

Q: “melittin (cytotoxic peptide from bee venom) (from UniProt P01501 44-70)” was tested. Which Kd did it give?
A: 158 nM
